Measured values from publication PMC9146215, “Design of D-Amino Acids SARS-CoV-2 Main Protease Inhibitors Using the Cationic Peptide from Rattlesnake Venom as a Scaffold” (Pharmaceuticals, 2022).
Non-standard residues stand in square brackets, D forms with d. Residues, ends and D or L forms follow the SMILES beside them.

Experiment: Redox cycling (H2O2 generation, HRP-phenol red) colourimetric assay
Conditions: 0-60 µM peptide, 1 mM TCEP, 30 min RT, absorbance 610 nm, triplicate

SMILES | H2O2 generation (redox cycling compound)
COC(=O)[C@@H](CCCCN)NC(=O)[C@@H](CCCCN)NC(=O)[C@@H](CS)NC(=O)[C@@H](CS)NC(=O)[C@@H](CCCCN)NC(=O)[C@@H](Cc1c[nH]c2ccccc12)NC(=O)[C@@H](CCCNC(=N)N)NC(=O)[C@@H](Cc1c[nH]c2ccccc12)NC(=O)[C@@H](CCCNC(=N)N)NC(=O)[C@@H](CS)NC(=O)[C@@H](CC(=O)O)NC(=O)[C@@H](CCSC)NC(=O)[C@@H](CCCCN)NC(C)=O [D-CDP1] (Ac-[dK][dM][dD][dC][dR][dW][dR][dW][dK][dC][dC][dK][dK]-OMe) | do not produce H2O2
COC(=O)[C@H](CCCCN)NC(=O)[C@H](CCCCN)NC(=O)[C@H](CS)NC(=O)[C@H](CS)NC(=O)[C@H](CCCCN)NC(=O)[C@H](Cc1c[nH]c2ccccc12)NC(=O)[C@H](CCCNC(=N)N)NC(=O)[C@H](Cc1c[nH]c2ccccc12)NC(=O)[C@H](CCCNC(=N)N)NC(=O)[C@H](CS)NC(=O)[C@H](CC(=O)O)NC(=O)[C@H](CCSC)NC(=O)[C@H](CCCCN)NC(C)=O [L-CDP1] (Ac-KMDCRWRWKCCKK-OMe) | do not produce H2O2
